# PubChem BioAssay AID624099 | ICCB-Longwood, 2012
# Screen: 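Host factors E2 relies on to silence an HPV18 LCR reporter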 (primary screen)
# Cell system: human C33A cervical carcinoma cells (HPV-negative) stably expressing BPV1 E2 and an HPV18 LCR luciferase reporter
# Reagents: siRNA pool against human genes, 40 nM
# Timing: 72 h
# Read-out: 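Per-well luciferase luminescence, z-scored on each plate against the plate mean and SD with control wells left out, then averaged across three replicate plates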
# Reading the numbers: mean z-score and z-score: higher = stronger reporter signal, weaker E2 silencing
# Rule for the call: 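Mean z ≥ 2 together with z ≥ 2 in two or more of the three replicates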
# Shown is a random part of about 21,000 deposited reagents. 497 of them (2.4%) were called active. 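Higher z means weaker E2 silencing; only reporter increases were scored, and knock-downs that hurt cell survival may mask genuine repressor factors.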
target gene,mean z-score,"z-score, replicate A","z-score, replicate B","z-score, replicate C",activity call
SLC25A26,2.03,2.1,2.19,1.79,active
NOL10,-0.21,-0.51,0.28,-0.4,inactive
USP8,-0.48,-0.21,-0.74,-0.49,inactive
LINC01020,0.15,-0.15,0.46,0.14,inactive
PTH2R,-0.9,-0.92,-0.74,-1.03,inactive
NEFM,-0.49,-0.5,-0.53,-0.43,inactive
ADIPOR2,-0.6,-0.84,-0.35,-0.61,inactive
UQCC2,-0.37,-0.25,-0.57,-0.29,inactive
NXPE1,1.17,1.5,0.73,1.28,inactive
PHKG2,1.11,1.02,1.01,1.3,inactive
IL12B-AS1,-0.24,-0.24,-0.43,-0.06,inactive
LYZ,-0.53,-0.68,-0.55,-0.35,inactive
VIPR1,1.27,1.57,1.13,1.1,inactive
IL1B,-0.16,-0.07,-0.2,-0.21,inactive
ZNF614,1.47,1.39,1.31,1.7,inactive
LINC00597,-0.04,-0.13,-0.05,0.06,inactive
GALNT3,-0.06,0.18,-0.15,-0.22,inactive
HDGFL1,-0.07,0.02,-0.24,0.02,inactive
RANBP1,1.14,1.22,1.15,1.07,inactive
SEPHS1P7,0.45,0.57,0.47,0.3,inactive
RPS6KL1,-0.52,-0.18,-0.74,-0.64,inactive
CP,-0.66,-0.42,-0.72,-0.83,inactive
CHST9,-0.4,-0.37,-0.21,-0.61,inactive

Part of the list above, set out differently.
ZNF614
- mean z-score: 1.47
- z-score, replicate A: 1.39
- z-score, replicate B: 1.31
- z-score, replicate C: 1.7
- activity call: inactive

LINC00597
- mean z-score: -0.04
- z-score, replicate A: -0.13
- z-score, replicate B: -0.05
- z-score, replicate C: 0.06
- activity call: inactive

GALNT3
- mean z-score: -0.06
- z-score, replicate A: 0.18
- z-score, replicate B: -0.15
- z-score, replicate C: -0.22
- activity call: inactive

HDGFL1
- mean z-score: -0.07
- z-score, replicate A: 0.02
- z-score, replicate B: -0.24
- z-score, replicate C: 0.02
- activity call: inactive
